System: N[C@H](COP(=O)(O)O)Cc1c[nH]cn1
Assay: purified protein
Conditions: pH 8.0

Substance: Rv2231c (Mycobacterium tuberculosis H37Rv)
- Km: 600 ± 50 µM

Source: paper PMC11065945
